Experimental data: PubChem BioAssay AID624099 (ICCB-Longwood, 2012)
Screen: 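Knock-downs relieving repression by E2 of an HPV18 LCR luciferase reporter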 (primary screen). Cells: human C33A cervical carcinoma cells (HPV-negative) stably expressing BPV1 E2 and an HPV18 LCR luciferase reporter. Knock-down reagent: siRNA pool against human genes, 40 nM. Timing: 72 h. Detection: 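Per-well luciferase luminescence, z-scored on each plate against the plate mean and SD with control wells left out, then averaged across three replicate plates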. Reading the numbers: mean z-score and z-score: higher = stronger reporter signal, weaker E2 silencing. Active means: 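Mean z ≥ 2 together with z ≥ 2 in two or more of the three replicates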.
The deposit covers about 21,000 reagents; this is a random part of them. 497 of all reagents (2.4%) count as active. 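Higher z means weaker E2 silencing; only reporter increases were scored, and knock-downs that hurt cell survival may mask genuine repressor factors.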 Entries without a mark were called inactive.

no.	Target gene	mean z-score	z-score, replicate A	z-score, replicate B	z-score, replicate C
1	CLEC3B (C-type lectin domain family 3 member B)	-0.5	-0.41	-0.26	-0.82
2	AFF2 (ALF transcription elongation factor 2)	0.21	0.32	0.1	0.22
3	PROB1 (proline rich basic protein 1)	1.32	1.41	1.26	1.3
4	CT45A2 (cancer/testis antigen family 45 member A2)	-1.04	-1.53	-0.6	-0.98
5	EIF4EBP2	-0.75	-0.23	-1.01	-1.02
6	TYRO3 (TYRO3 protein tyrosine kinase)	1.64	1.76	1.51	1.66
7	TFDP2 (transcription factor Dp-2)	0.59	0.39	0.7	0.68
8	CSGALNACT2P1 (CSGALNACT2 pseudogene 1)	-0.46	-0.62	-0.25	-0.49
9	ADHFE1 (alcohol dehydrogenase iron containing 1)	-0.99	-1.16	-0.8	-1.01
10	C2CD4C (C2 calcium dependent domain containing 4C)	-1.97	-1.83	-2.15	-1.94
11	TRIM41 (tripartite motif containing 41)	-0.29	-0.08	-0.37	-0.43
12	MIF4GD (MIF4G domain containing)	0.12	0.24	0.28	-0.17
13	SERPINF2 (serpin family F member 2)	1.2	1.27	0.92	1.41
14	DAZAP1 (DAZ associated protein 1)	1.28	1.39	1.28	1.16
15	SATB1 (SATB homeobox 1)	-0.13	-0.34	-0.03	-0.01
16	OR52E8 (olfactory receptor family 52 subfamily E member 8)	1.11	1.17	0.63	1.52
17	BTBD6 (BTB domain containing 6)	-0.44	-0.07	-0.96	-0.28
18	FNDC1 (fibronectin type III domain containing 1)	0.73	0.45	0.9	0.84
19	SOX6 (SRY-box transcription factor 6)	0.57	0.74	0.46	0.52
20	POMGNT1	-0.16	-0.01	-0.27	-0.21
21	LOC284798	-0.8	-0.64	-0.84	-0.93
22	MTMR2 (myotubularin related protein 2)	0.94	1.09	0.8	0.94
23	AIFM1 (apoptosis inducing factor mitochondria associated 1)	-0.25	-0.51	-0.22	-0.03
24	CYP4Z1 (cytochrome P450 family 4 subfamily Z member 1)	0.13	0.29	0.25	-0.16
25	POLR3E (RNA polymerase III subunit E)	0.88	0.56	1.04	1.04
26	ATOSA (atos homolog A)	0.8	0.78	0.8	0.84
27	CREB3L3 (cAMP responsive element binding protein 3 like 3)	-0.41	-0.3	-0.55	-0.39
28	IRX1 (iroquois homeobox 1)	1.81	1.83	1.96	1.65
29	OR3A1 (olfactory receptor family 3 subfamily A member 1)	0.6	0.87	0.3	0.64
30	DLG5 (discs large MAGUK scaffold protein 5)	0.69	0.85	0.55	0.66
31	GLDC (glycine decarboxylase)	-0.22	0.06	-0.18	-0.54
32	GART	0.01	0.69	-0.14	-0.52
33	APPL2	0.8	1.16	0.76	0.47
34	MRE11 (MRE11 double strand break repair nuclease)	0.92	1.37	0.5	0.9
35	ATP6V1G2 (ATPase H+ transporting V1 subunit G2)	0.5	0.32	0.72	0.47
36	UPK1A (uroplakin 1A)	-0.38	-0.29	-0.49	-0.35
37	TSSK2 (testis specific serine kinase 2)	-0.4	-0.67	-0.63	0.09
38	KBTBD2 (kelch repeat and BTB domain containing 2)	1.09	1.1	0.93	1.23
39	CDC25B (cell division cycle 25B)	0.69	0.73	0.69	0.64
40	C3 (complement C3)	0.01	0.01	0.02	0.01
41	NAA30 (N-alpha-acetyltransferase 30, NatC catalytic subunit)	-0.42	-0.67	-0.29	-0.29
42	FAM167A-AS1 (FAM167A antisense RNA 1)	0.42	0.54	0.33	0.4
43	CACNB1 (calcium voltage-gated channel auxiliary subunit beta 1)	2.58 (active)	2.33	2.87	2.53
44	CAP1 (cyclase associated actin cytoskeleton regulatory protein 1)	1.27	1.09	1.26	1.46
45	TRIM51BP (tripartite motif-containing 51B, pseudogene)	1.67	2.29	1.72	0.99
46	PDCL3P4 (PDCL3 pseudogene 4)	2.95 (active)	3.1	2.56	3.18
47	HNRNPH2 (heterogeneous nuclear ribonucleoprotein H2)	1.61	1.63	1.57	1.63
48	DESI1 (desumoylating isopeptidase 1)	0.07	0.22	0.03	-0.05
49	ZNF763 (zinc finger protein 763)	0.25	0.16	0.52	0.09
50	DUSP5 (dual specificity phosphatase 5)	-0.56	-0.34	-0.42	-0.91
51	PAICS	0.71	0.45	0.73	0.94
52	LANCL2 (LanC like glutathione S-transferase 2)	-0.98	-0.8	-1.14	-1.01
53	HSD17B8 (hydroxysteroid 17-beta dehydrogenase 8)	-0.68	-0.63	-0.49	-0.94
54	GAS2L3 (growth arrest specific 2 like 3)	0.18	0.26	0.34	-0.07
55	ATP7A (ATPase copper transporting alpha)	0.84	0.93	0.74	0.84
56	MAGEB2 (MAGE family member B2)	0.37	0.41	0.39	0.3
57	CASR (calcium sensing receptor)	0.43	0.1	0.74	0.46
